Measured values published in paper PMC5902452, “In silico optimization of a guava antimicrobial peptide enables combinatorial exploration for peptide design” (Nature Communications, 2018).
Peptide text beside a SMILES is read from it.

Test: CD spectroscopy (secondary structure content)
Assay type: physicochemical
Conditions: for α-helical content: pH 4, 25 °C, peptide 38 μM, from ellipticity at 222 nm

CC[C@H](C)[C@H](NC(=O)[C@H](CCCNC(=N)N)NC(=O)[C@H](Cc1ccc(O)cc1)NC(=O)CNC(=O)[C@H](Cc1ccc(O)cc1)NC(=O)[C@H](CCCNC(=N)N)NC(=O)[C@H](CC(C)C)NC(=O)[C@H](C)NC(=O)[C@H](CCC(N)=O)NC(=O)[C@H](CCC(=O)O)NC(=O)[C@@H](NC(=O)[C@H](CCC(N)=O)NC(=O)[C@H](CCCNC(=N)N)NC(=O)[C@H](CCSC)NC(=O)[C@H](Cc1ccc(O)cc1)NC(=O)[C@H](CCC(N)=O)NC(=O)[C@@H](N)CCCNC(=N)N)[C@@H](C)CC)C(=O)N[C@@H](CO)C(=O)N[C@@H](CCCNC(=N)N)C(=O)N[C@@H](CCCNC(=N)N)C(N)=O [Guavanin 2] (H-RQYMRQIEQALRYGYRISRR-NH2)
α-helical content (DPC micelles 20 mM): 39% | α-helical content (SDS micelles 20 mM): 42% | secondary structure by CD (water, pH 7, 25 °C, peptide 33 μM): no defined secondary structure
